These are literature values, as cited in patent publication US20050026235A1 (priority 2003, published 2005).

Protein sequences, listed by entry. Tags and fused reporters are not part of them. Residues count along the entry.
UniProt P09598, 39-283 limits assumed: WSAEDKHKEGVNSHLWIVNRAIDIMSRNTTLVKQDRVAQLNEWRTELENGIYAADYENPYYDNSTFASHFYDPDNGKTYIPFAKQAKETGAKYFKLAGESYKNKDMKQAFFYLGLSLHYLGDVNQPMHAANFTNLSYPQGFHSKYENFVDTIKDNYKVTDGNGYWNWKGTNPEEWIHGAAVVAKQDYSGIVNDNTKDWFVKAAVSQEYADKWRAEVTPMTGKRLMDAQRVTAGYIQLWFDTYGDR

The source holds more than one record for some entries. They are shown here; other results are not. The source may hold further records. The records of an entry do not match, cause unknown; they may come from other doses, times, organisms or constructs than stated.

The Ki is the equilibrium dissociation constant of an inhibitor or competing ligand from its target.

The target in the data set is phosphatidylcholine-specific phospholipase C (Bacillus cereus, UniProt P09598). The following applies: tested form: K; cited from earlier work.

For `S=C(S)OC1CC2CC1C1CCCC21` (stereo not shown), the Ki is 6 µM and 13 µM to 17 µM.
